Pooled drug test results. Numbers come from NIAID ChemDB, via PubChem.

Common to all: host cell toxicity; cell line: PBMC; measure: CC50

CCn is the concentration with n% toxicity to the cells.

Cc1cnc(SCCN(C)C)nc1-c1ccc(-c2nc(SCCN(C)C)ncc2C)s1 ; value: 10 µM
Cc1cnc(SCCN2CCN(C)CC2)nc1-c1cc2ccccc2s1 ; value: 10 µM
COc1ccc(NC(=O)NCCc2ccc3c(n2)NCCC3)cn1 ; value: 50 µM
Cc1c(-c2ccc(SCCN(C)C)cc2)ncnc1-c1ccc(SCCN(C)C)cc1 ; value: 100 µM
CC(=O)Nc1ccc2c(c1)CN(c1nn3c(C4CC4)nnc3c3ccccc13)CC2 ; value: 0.25 µM
CN1CCN(Cc2ccc(-c3cccc(-c4ccc(CN5CCN(C)CC5)cc4)n3)cc2)CC1 ; value: 100 µM
Cn1ccc2c(NC(=O)NCCc3ccc4c(n3)NCCC4)cccc21 ; value: 0.4 µM
Cc1c(-c2ccc(SCCN(C)C)cc2)ncnc1-c1ccc(SCCN(C)C)cc1 ; value: 100 µM
Cc1c(N2CCc3ccccc3C2)nn2c(C)nnc2c1C ; value: 74.7 µM
CCOC(=O)N[C@H](C(=O)N[C@@H](Cc1ccccc1)[C@H]1O[C@H]1CC(=O)NC(Cc1ccccc1)C(C)C)C(C)(C)S(C)(=O)=O ; value: >10 µM
CN(C)CCSc1nc(-c2cccs2)cc(-c2cccn2C)n1 ; value: 100 µM
COc1cccc(CC(=O)NCCc2ccc3c(n2)NCCC3)c1 ; value: 50 µM
Nc1nccc2c1ncn2[C@@H]1O[C@H](CO)[C@@H](O)[C@H]1O ; value: 9.97 µM
CC(C)c1nnc2c3ccccc3c(N3CCc4ccccc4C3)nn12 ; value: 0.96 µM
CN(C)CCSc1cccc(-c2ccnc(SCCN(C)C)n2)c1 ; value: 100 µM
CC(=O)Nc1cc2c(cc1OC(F)(F)F)CCN(c1nn3c(C)nnc3c3ccccc13)C2 ; value: 2.55 µM
CC(C)C(Cc1ccccc1)NC(=O)C[C@@H]1O[C@@H]1[C@H](Cc1ccccc1)NC(=O)[C@@H](NC(=O)Cc1ccoc1)C(C)(C)S(C)(=O)=O ; value: >10 µM
CN(C)CCSc1ccc(-c2cc(-c3ccc(SCCN(C)C)cc3)ncn2)cc1 ; value: 100 µM
O=C(NCCc1cccc(-n2ccnc2)n1)Nc1cccc(C(F)(F)F)c1 ; value: 10.2 µM
Cc1ccc(-c2c([C@H](OC(C)(C)C)C(=O)O)c(C)nc3ccccc23)cc1C ; value: 149 µM
CN(C)CCSc1ccc(-c2ccc(-c3ccc(SCCN(C)C)cc3)nn2)cc1 ; value: 10 µM
CN1CCN(CCSc2nc(-c3ccc4ccccc4c3)c3ccccc3n2)CC1 ; value: 100 µM
c1ccc2c(c1)CN(c1nn3c(C4CC4)nnc3c3ccccc13)C2 ; value: >100 µM
CN(C)CCSc1cccc(-c2cc(-c3cccc(SCCN(C)C)c3)nc(SCCN(C)C)n2)c1 ; value: 10 µM
Cc1nnc2c3ccccc3c(N3CCc4ccc(C#N)cc4C3)nn12 ; value: 19.9 µM
CC(C)C(Cc1ccccc1)NC(=O)C[C@@H]1O[C@@H]1[C@H](Cc1ccccc1)NC(=O)[C@@H](NC(=O)c1ccco1)C(C)(C)S(C)(=O)=O ; value: >10 µM
COc1ccc2c(c1)CCN(c1nn3c(C4CC4)nnc3c3ccccc13)C2 ; value: 3 µM
Nc1ncnc2c1ncn2[C@@H]1C=C(CO)[C@@H](O)[C@H]1O ; value: 9.98 µM
COc1cc2c(cc1OC)CN(c1nn3c(C)nnc3c3ccccc13)CC2 ; value: 1 µM
CC(C)C(Cc1ccccc1)NC(=O)C[C@@H]1O[C@@H]1[C@H](Cc1ccccc1)NC(=O)[C@@H](NC(=O)c1cccnc1)C(C)(C)S(C)(=O)=O ; value: >10 µM

Again, the opening 3 rows:

smiles	value
Cc1cnc(SCCN(C)C)nc1-c1ccc(-c2nc(SCCN(C)C)ncc2C)s1	10 µM
Cc1cnc(SCCN2CCN(C)CC2)nc1-c1cc2ccccc2s1	10 µM
COc1ccc(NC(=O)NCCc2ccc3c(n2)NCCC3)cn1	50 µM

Conditions beyond the fields shown may differ between rows.